According to the supplement of paper PMC12637763:
Positions count from the first letter of the chain named. The list shows a part of the results. Env chains of viruses from a treatment-interruption trial, translated from the printed DNA. IC50 / IC80 of two broadly neutralizing antibodies; lower = more sensitive virus; >50 µg/ml means not reached and <0.001 µg/ml is below the lowest dose. No active / inactive call.

What was measured:
[1] = molecular target: antibody 10-1074; assay: neutralization IC50; higher = virus less sensitive to the antibody
Description: (§1)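 Pseudovirus bearing the Env chain mixed with antibody, from 50 µg/ml in fivefold dilutions, on TZM-bl reporter cells, in duplicate.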

[2] = molecular target: antibody 3BNC117; assay: as above
Description: as §1

[3] = molecular target: antibody 10-1074; assay: neutralization IC80; higher = virus less sensitive to the antibody
Description: as §1

[4] = molecular target: antibody 3BNC117; assay: as above
Description: as §1

B1: HIV-1 Env, rebound clone, placebo arm (protein)
chain: MKVKGTRMNWQHLWRWGTLMLGLVIICNASNTNLWVTVYYGVPAWEDADTTLFCASDAKAYSTEKHNVWATHACVPTDPNPQEISLPNVTENFDMWKNNMVEQMHEDIISLWDESLKPCVKLTPLCVTLTCSDINITNSSNTTTTNGNNSMVDPEEIKNCTFNMTTEIIDKKKEEYALFYKLDIVQINNGNGNDSKDYRLINCNVSTIKQACPKVSFEPIPIHYCAPAGFAILKCKDKNFNGTGPCKNVSTVQCTHGIKPVVSTQLLLNGSLAEEDIVIRTKNITDNGNNIIVHLNESITINCTRPNNNTRKSIHLGQGQAFYATGAIIGDIRQAHCNVSGSQWINMIKRVAGKLKGVFSKNVTFNSSAGGDLEITTHSFNCGGEFFYCNTSNLFNSSILTSNNTNENITLPCKIRQIVRMWQTVGQAMYAPPIAGSIICTSNITGLILTRDGGSNETNGTDTFRPGGGNMKDNWRSELYKYKVVKIKPLGIAPTKARRRVVGREKRAIGVLGAALLGFLGTAGSTMGAASITLTVQVRQLLSGIVQQQSNLLRAIEAQQHLLQLTVWGIKQLQARVLAVERYLRDQQLLGIWGCSGKLICTTNVPWNASWSNKSYEEIWDNMTWIQWDREIDNYTQLIYSLIEESQNQQEKNEQDLLALDKWTSLWSWFDISNWLWYIRIFIIIVGGLIGLRIVFAVLSIVNRVRQGYSPLSLQTLLPHPPEADRPGEIEEGGGEQGRTRSIRLVNGFLALAWDDLRNLCLFLYHHLRDFILTAARTVETLGHRGWEILKYLGNLLCYWGQELKNSVINLLDTTAIAVGNWTDRFIELGQRVVRAVLHIPRRTRQGLERALL
neutralization IC50 [1]: 0.009 µg/mL
neutralization IC50 [2]: 0.124 µg/mL
neutralization IC80 [3]: 0.019 µg/mL
neutralization IC80 [4]: 0.594 µg/mL

B2: HIV-1 Env, rebound clone, placebo arm (protein)
chain: MKVKGTRMNWQHLWRWGTLMLGLVIICNASNTNLWVTVYYGVPAWEDADTTLFCASDAKAYSTEKHNVWATHACVPTDPNPQEISLPNVTENFDMWKNNMVEQMHEDIISLWDESLKPCVKLTPLCVTLTCSDINITNSSNTTTTNGNNSMVDPEEIKNCTFNMTTEIIDKKKEEYALFYKLDIVQINNGNGSKDYRLINCNVSTIKQACPKVSFEPIPIHYCAPAGFAILKCKDKNFNGTGPCKNVSTVQCTHGIKPVVSTQLLLNGSLAEEDIVIRTKNITDNGNNIIVHLNESITINCTRPNNNTRKSIHLGQGQAFYATGAIIGDIRQAHCNVSGSQWINMIKRVAGKLKGVFSKNVTFNSSAGGDLEITTHSFNCGGEFFYCNTSNLFNSSILTSNNTNENITLPCKIRQIVRMWQTVGQAMYAPPIAGSIICTSNITGLILTRDGGSNETNGTDTFRPGGGNMKDNWRSELYKYKVVKIKPLGIAPTKARRRVVGREKRAIGVLGAALLGFLGTAGSTMGAASITLTVQVRQLLSGIVQQQSNLLRAIEAQQHLLQLTVWGIKQLQARVLAVERYLRDQQLLGIWGCSGKLICTTNVPWNASWSNKSYEEIWDNMTWIQWDREIDNYTQLIYSLIEESQNQQEKNEQDLLALDKWTSLWSWFDISNWLWYIRIFIIIVGGLIGLRIVFAVLSIVNRVRQGYSPLSLQTLLPHPPEADRPGEIEEGGGEQGRTRSIRLVNGFLALAWDDLRNLCLFLYHHLRDFILTAARTVETLGHRGWEILKYLGNLLCYWGQELKNSVINLLDTTAIAVGNWTDRFIELGQRVVRAVLHIPRRTRQGLERALL
neutralization IC50 [1]: 0.008 µg/mL
neutralization IC50 [2]: 0.154 µg/mL
neutralization IC80 [3]: 0.024 µg/mL
neutralization IC80 [4]: 0.419 µg/mL

B3: HIV-1 Env, rebound clone, placebo arm (protein)
chain: B2 chain with N191S, G192D
neutralization IC50 [1]: 0.005 µg/mL
neutralization IC50 [2]: 0.199 µg/mL
neutralization IC80 [3]: 0.019 µg/mL
neutralization IC80 [4]: 1.24 µg/mL

B4: HIV-1 Env, rebound clone, placebo arm (protein)
chain: B2 chain with G192D, S193N, A695T
neutralization IC50 [1]: 0.003 µg/mL
neutralization IC50 [2]: 0.174 µg/mL
neutralization IC80 [3]: 0.02 µg/mL
neutralization IC80 [4]: 0.783 µg/mL

B5: HIV-1 Env, rebound clone, placebo arm (protein)
chain: B2 chain with E174Q, G190S, G192D, T842I, G845E
neutralization IC50 [1]: 0.013 µg/mL
neutralization IC50 [2]: 0.289 µg/mL
neutralization IC80 [3]: 0.026 µg/mL
neutralization IC80 [4]: 0.88 µg/mL

B6: HIV-1 Env, rebound clone, placebo arm (protein)
chain: B2 chain with G192D
neutralization IC50 [1]: 0.004 µg/mL
neutralization IC50 [2]: 0.19 µg/mL
neutralization IC80 [3]: 0.023 µg/mL
neutralization IC80 [4]: 0.87 µg/mL
